Data on 18 substances can be found in patent US10098937B2, “Peptides and combination of peptides for use in immunotherapy against various cancers” (immatics biotechnologies GmbH, priority 2015, dated 2018).

For data set [1], the system named is HLA-A*02-positive cancer and normal tissue samples. Nature of the data set: Identification and relative quantitation of HLA-A*02 tumor associated peptides presented on the cell surface (LC-MS, XPRESIDENT). Further details: species or system human. The conditions noted are these: FIG. 1, HLA-A*02 peptides.
For data set [2], the system named is HLA-A*24-positive cancer and normal tissue samples. Nature of the data set: Identification and relative quantitation of HLA-A*24 tumor associated peptides presented on the cell surface (LC-MS, XPRESIDENT). On the set-up: species or system human. The note with it: FIG. 1, HLA-A*24 peptides; for number of cell lines where the peptide was found to be presented: benign prostate hyperplasias.

For “SEQ ID NO.: 92 (GLLFSLRSV; listed as Homo sapiens)”, in data set [1], the “number of cancer tissues where the peptide was found to be presented” value is recorded as 14, the “number of cell lines where the peptide was found to be presented” value is reported as 2 and the “number of normal tissues where the peptide was found to be presented” value stood at 1.
For the substance “SEQ ID NO.: 158 (HYSQELSLLYL; listed as Homo sapiens)”, the “number of cancer tissues where the peptide was found to be presented” value in data set [2] stood at 19.
As to “SEQ ID NO.: 195 (TYSVSFPMF; listed as Homo sapiens)”, in data set [2], the “number of cancer tissues where the peptide was found to be presented” value is 58, the “number of normal tissues where the peptide was found to be presented” value was 1 and the “number of cell lines where the peptide was found to be presented” value is given as 3.
Regarding “SEQ ID NO: 8 (SIYQFLIAV; listed as Homo sapiens)”, in data set [1], the “number of cancer tissues where the peptide was found to be presented” value is recorded as 14 and the “number of cell lines where the peptide was found to be presented” value is 2.
Take “SEQ ID NO: 13 (ALMAMLVYV; listed as Homo sapiens)”: the “number of cancer tissues where the peptide was found to be presented” value in data set [1] was 17.
As for “SEQ ID NO: 32 (VQLDSIEDLEV; listed as Homo sapiens)”, in data set [1], the “number of cancer tissues where the peptide was found to be presented” value is given as 10.
Take “SEQ ID NO: 39 (HLLEGSVGV; listed as Homo sapiens)”: the “number of cancer tissues where the peptide was found to be presented” value in data set [1] came to 7.
Turning to “SEQ ID NO: 160 (VYTLDIPVL; listed as Homo sapiens)”, in data set [2], the “number of cancer tissues where the peptide was found to be presented” value was 17.
With “SEQ ID NO: 164 (KFSSFSLFF; listed as Homo sapiens)”, in data set [2], the “number of cancer tissues where the peptide was found to be presented” value amounted to 14 and the “number of cell lines where the peptide was found to be presented” value came to 2.
“SEQ ID NO: 203 (FYSRLLQKF; listed as Homo sapiens)”: in data set [2], the “number of cancer tissues where the peptide was found to be presented” value came to 15 and the “number of cell lines where the peptide was found to be presented” value is on record as 1.
For “SEQ ID NO: 237 (ALAPHLDDA; listed as Homo sapiens)”, in data set [1], the “number of cancer tissues where the peptide was found to be presented” value was determined as 10 and the “number of cell lines where the peptide was found to be presented” value came to 1.
In the case of “SEQ ID NO: 259 (ILLPRIIEA; listed as Homo sapiens)”, in data set [1], the “number of cancer tissues where the peptide was found to be presented” value was found to be 27 and the “number of cell lines where the peptide was found to be presented” value came out at 1.
In the case of “SEQ ID NO: 270 (NYYEVHKELF; listed as Homo sapiens)”, in data set [2], the “number of cancer tissues where the peptide was found to be presented” value was 14.
In the case of “SEQ ID NO: 277 (VYQGHTALL; listed as Homo sapiens)”, in data set [2], the “number of cancer tissues where the peptide was found to be presented” value was 64, the “number of normal tissues where the peptide was found to be presented” value is recorded as 4 and the “number of cell lines where the peptide was found to be presented” value worked out at 2.
Take “SEQ ID NO: 278 (RYISDQLFTNF; listed as Homo sapiens)”: in data set [2], the “number of cancer tissues where the peptide was found to be presented” value is reported as 31 and the “number of normal tissues where the peptide was found to be presented” value is given as 1.
In the case of “SEQ ID NO: 287 (LYITEPKTI; listed as Homo sapiens)”, the “number of cancer tissues where the peptide was found to be presented” value in data set [2] was 12.
For the substance “SEQ ID NO: 288 (VYVSDIQEL; listed as Homo sapiens)”, in data set [2], the “number of cancer tissues where the peptide was found to be presented” value was determined as 21 and the “number of normal tissues where the peptide was found to be presented” value is 2.
Regarding “SEQ ID NO: 305 (KLFTSVFGV; listed as Homo sapiens)”, the “number of cancer tissues where the peptide was found to be presented” value in data set [1] amounted to 5.
